Data published in patent publication US9879058B2 (Universidad Andres Bello, priority 2012, dated 2018).
Entries after “also recorded” stand apart in the source; their conditions may differ. No end group written: not given here.

Test system: Sprague Dowley rats
Experiment: Auditory fear conditioning with microinfusion into the basolateral amygdala
Format: in vivo, rat
Conditions: 1 mM into BLA 10 min before training
Method: A. Animals: All procedures involving animals were in accordance to NIH guidelines and with approval of the bioethical committee of the Universidad Andrés Bello. Sprague Dowley rats (˜60 d old, ˜250 g) were caged individually at 22° C., 12/12 h light/dark cycle. The rats remained in their home box throughout the study, and were removed only briefly for drug microinfusion. B. Drugs: TAT-Cx43L2 ([…] (SEQ ID NO: 1), LifeTein, South Plainfield, N.J., USA, >90% purity) was dissolved in PBS to yield final solutions of 1 mM, 100 μM, 10 μM, 1 μM or 100 nM. Unless stated otherwise, the concentration used for microinfusions of TAT-Cx43L2 was 1 mM. As a control, TAT-Cx43L2^H126K/I130N was used at 1 mM. Gap27 (AnaSpec, Fremont, Calif., USA, >95% purity) and Gap27 scramble were dissolved to a final concentration of 1 mM. For the recovery cocktail, 100 mM glutamate (Sigma), D-serine (200 nM), glutamine (100 mM), ATP (100 μM), lactate (10 mM) and glycine (100 nM) were diluted in sterile saline. C. Apparatus: All behavioral essays were performed in a sound attenuating cubicle. Conditioning and tone testing were conducted in different chambers. For conditioning, rats were placed in a Plexiglas chamber with a metal grid floor (40 cm×40 cm×40 cm). The chamber was dimly illuminated by a red light. […]

## YGRKKRRQRRRDGANVDMHLKQIEIKKFKYGIEEHGK [TAT-Cx43L2, synthetic cell-permeable peptide corresponding to the Cx43L2 region (aa 119-144) of the cytoplasmic loop of Cx43]
  locomotion (transitions) before training: did not affect locomotion; also recorded: unaffected locomotion
  shock reactivity (escape velocity): did not affect shock reactivity; also recorded: normal reactivity to the shock
